# Potato spindle tuber viroid, loop 15: variant abundance in plants

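Three N. benthamiana plants were inoculated with the whole mutant pool. Samples came from the inoculated region at 5 days, the leaf margin at 10 and upper systemic leaves at 12.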

The pool varies loop 15 of the PSTVd intermediate strain in the pattern GGAAACCGNNNNNNC; wild type is GGAAACCGCUACUAC (upper and lower strand joined, each 5' to 3', the first 7 letters being the upper strand, closing pairs included).

Numbers give reads per thousand; 0 = not seen among the reads, higher = more abundant. Each value is the mean of three plants. "Pool" is the share in the plasmid pool used as inoculum, on the same scale. The inoculated region was read from the minus strand, the other sites from the plus strand. Samples held 43,870 to 66,106 reads, so the smallest values rest on one or two reads.

| sequence | pool | inoculated region | leaf margin | systemic leaves |
|---|---|---|---|---|
| GGAAACCGAACCCUC | 0.208 | 0.103 | 0.0134 | 0 |
| GGAAACCGAACCGCC | 0.144 | 0.118 | 0.0182 | 0 |
| GGAAACCGACAGUGC | 0.272 | 0.366 | 0.0652 | 0.0594 |
| GGAAACCGACGAAUC | 0.256 | 0.0878 | 0.00668 | 0 |
| GGAAACCGACUCAAC | 0.128 | 0.0885 | 0.0254 | 0 |
| GGAAACCGACUCGGC | 0.272 | 0.0848 | 0.00539 | 0 |
| GGAAACCGAGAUGUC | 0.240 | 0.348 | 0.00668 | 0 |
| GGAAACCGAGCAUCC | 0.272 | 0.120 | 0.0108 | 0 |
| GGAAACCGAGCCUUC | 0.304 | 0.0668 | 0.00539 | 0 |
| GGAAACCGAGCUACC | 0.0800 | 0.0560 | 0.00668 | 0 |
| GGAAACCGAGGUGCC | 0.224 | 0.109 | 0 | 0 |
| GGAAACCGAGGUGUC | 0.400 | 0.0590 | 0.00668 | 0 |
| GGAAACCGAGUAAUC | 0.384 | 0.127 | 0 | 0 |
| GGAAACCGAGUGACC | 0.208 | 0.0857 | 0 | 0.00537 |
| GGAAACCGAGUUAGC | 0.208 | 0.138 | 0.00668 | 0 |
| GGAAACCGAUAAAUC | 0.336 | 0.384 | 0.118 | 0.0107 |
| GGAAACCGAUACUCC | 0.112 | 0.273 | 0.128 | 0.0667 |
| GGAAACCGAUGGCCC | 0.144 | 0.108 | 0.00668 | 0 |
| GGAAACCGAUUAGUC | 0.224 | 0.251 | 0.373 | 0.0130 |
| GGAAACCGCCAUGGC | 0.176 | 0.252 | 0.0341 | 0.00537 |
| GGAAACCGCCUCGUC | 0.240 | 0.200 | 0.0121 | 0 |
| GGAAACCGCGCCAGC | 0.192 | 0.0551 | 0.00539 | 0.00537 |
| GGAAACCGCGCGCGC | 0.208 | 0.104 | 0 | 0 |
| GGAAACCGCGCGGUC | 0.224 | 0.364 | 0.113 | 0.00537 |
| GGAAACCGCUCAUCC | 0.224 | 0.0388 | 0.0195 | 0.0130 |
| GGAAACCGGAAGCCC | 0.304 | 0.140 | 0 | 0 |
| GGAAACCGGAAUCUC | 0.352 | 0.0632 | 0.0121 | 0.00537 |
| GGAAACCGGAUGCCC | 0.208 | 0.168 | 0 | 0 |
| GGAAACCGGAUUUUC | 0.304 | 0.0949 | 0.00668 | 0 |
| GGAAACCGGCAGUUC | 0.224 | 0.246 | 0.0924 | 0.0745 |
| GGAAACCGGCGACUC | 0.224 | 0.0785 | 0.00668 | 0 |
| GGAAACCGGCGUAUC | 0.192 | 0.0930 | 0.0262 | 0 |
| GGAAACCGGCUAAAC | 0.160 | 0.113 | 0 | 0.0161 |
| GGAAACCGGGCGUUC | 0.272 | 0.372 | 0.0765 | 0.0107 |
| GGAAACCGGGCUGAC | 0.160 | 0.116 | 0.0182 | 0 |
| GGAAACCGGGGACCC | 0.256 | 0.0950 | 0.0215 | 0.0104 |
| GGAAACCGGGGCACC | 0.256 | 0.117 | 0.0208 | 0 |
| GGAAACCGGUCAAAC | 0.304 | 0.0955 | 0.0182 | 0 |
| GGAAACCGGUCUUUC | 0.256 | 0.193 | 0.00742 | 0 |
| GGAAACCGGUGCGGC | 0.288 | 0.102 | 0 | 0 |
| GGAAACCGUGCCGAC | 0.256 | 0.130 | 0.0128 | 0.0155 |
| GGAAACCGUGUUACC | 0.224 | 0.123 | 0.0195 | 0 |
| GGAAACCGUUAAAAC | 0.224 | 0.364 | 0.181 | 0.0360 |
| GGAAACCGUUCAGCC | 0.288 | 0.102 | 0 | 0.0130 |
| GGAAACCGUUGGGGC | 0.256 | 0.123 | 0.00539 | 0 |
| GGAAACCGUUGGUCC | 0.272 | 0.304 | 0.126 | 0.0107 |
| GGAAACCGUUUAAUC | 0.288 | 0.0785 | 0.0275 | 0 |
| GGAAACCGUUUUUAC | 0.160 | 0.343 | 0.136 | 0.0434 |

3 of these entries, quoted again:

sequence	pool	inoculated region	leaf margin	systemic leaves
GGAAACCGCCAUGGC	0.176	0.252	0.0341	0.00537
GGAAACCGGAAUCUC	0.352	0.0632	0.0121	0.00537
GGAAACCGCGCGGUC	0.224	0.364	0.113	0.00537

The authors trace changes outside the varied positions to PCR and sequencing errors or to mutation in the plant; presence does not show that a variant is infectious alone. Wild type was 33.9 per thousand in the pool and the most common sequence in every sample (inoculated region 202, 200, 159; leaf margin 724, 746, 710; systemic leaves 856, 883, 880).

Data from the supplement of Wu et al. 2024, doi:10.1371/journal.ppat.1012142.